Reference: paper PMC5512451

Target: native Env trimer liberated from VLPs (BN-PAGE shift) (HIV-1)
Experiment: native gel or EMSA

With N90-VRC38.01 IgG (antibody) the stoichiometry N (copy per trimer) was 1.
